Values from PubChem BioAssay AID624099 (ICCB-Longwood, 2012).
Here is one part, drawn at random, of about 21,000 reagents. Of all reagents, 497 (2.4%) got an active call. 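Higher z means weaker E2 silencing; only reporter increases were scored, and knock-downs that hurt cell survival may mask genuine repressor factors.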

Screen: 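Human genes that papillomavirus E2 requires to repress the HPV18 LCR promoter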 (primary screen)
Cell system: human C33A cervical carcinoma cells (HPV-negative) stably expressing BPV1 E2 and an HPV18 LCR luciferase reporter
Reagent: siRNA pool against human genes, 40 nM
Duration: 72 h
Measured: 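HPV18 LCR reporter light per well, converted to plate-wise z-scores that exclude control wells, and averaged over triplicate plates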
Direction: mean z-score and z-score: higher = stronger reporter signal, weaker E2 silencing
Rule for the call: 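Mean z ≥ 2 together with z ≥ 2 in two or more of the three replicates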

After knock-down of GGN (gametogenetin) the results were mean z-score -1.95; z-score, replicate A = -1.99; z-score, replicate B = -1.32; z-score, replicate C = -2.54; inactive.
SEMA4F (ssemaphorin 4F) gave mean z-score 0.01; z-score, replicate A = -0.36; z-score, replicate B = 0.15; z-score, replicate C = 0.24; inactive.
Against GYPC (glycophorin C (Gerbich blood group)), the values are mean z-score 0.29; z-score, replicate A = 0.22; z-score, replicate B = 0.22; z-score, replicate C = 0.45; inactive.
Silencing of TUBA1B (tubulin alpha 1b) resulted in: mean z-score 0.48; z-score, replicate A = 0.34; z-score, replicate B = 0.43; z-score, replicate C = 0.68; inactive.
For RSL24D1P11 (ribosomal L24 domain containing 1 pseudogene 11) the deposit lists mean z-score -0.33; z-score, replicate A = -0.23; z-score, replicate B = -0.48; z-score, replicate C = -0.29; inactive.
Against LOC344227 (retired record) the deposit lists mean z-score 0.45; z-score, replicate A = 0.37; z-score, replicate B = 0.34; z-score, replicate C = 0.64; inactive.
With knock-down of LOC105378085 the results were mean z-score -0.48; z-score, replicate A = -0.54; z-score, replicate B = -0.39; z-score, replicate C = -0.5; inactive.
For ALDOC (aldolase, fructose-bisphosphate C) the deposit lists mean z-score -0.15; z-score, replicate A = -0.24; z-score, replicate B = -0.1; z-score, replicate C = -0.1; inactive.

Look-ups from the list.
ALDOC (aldolase, fructose-bisphosphate C), Call = inactive
Entry for SEMA4F (ssemaphorin 4F) under “Call”: inactive

Additional records follow:
SMC3 (structural maintenance of chromosomes 3) showed mean z-score -0.29; z-score, replicate A = -0.26; z-score, replicate B = -0.23; z-score, replicate C = -0.39; inactive.
Depletion of RAD23B (RAD23 nucleotide excision repair protein B) gave: mean z-score -1.99; z-score, replicate A = -2; z-score, replicate B = -2.07; z-score, replicate C = -1.9; inactive.
Depletion of PFKFB3 (6-phosphofructo-2-kinase/fructose-2,6-biphosphatase 3) gave: mean z-score -1.59; z-score, replicate A = -1.9; z-score, replicate B = -1.42; z-score, replicate C = -1.46; inactive.
With knock-down of MSI1 (musashi RNA binding protein 1), the screen gave mean z-score 0.47; z-score, replicate A = 0.52; z-score, replicate B = 0.21; z-score, replicate C = 0.7; inactive.
Depletion of SEPTIN5 (septin 5) came out at: mean z-score -0.87; z-score, replicate A = -0.95; z-score, replicate B = -0.87; z-score, replicate C = -0.79; inactive.
For PDE6B (phosphodiesterase 6B) the deposit lists mean z-score 0.71; z-score, replicate A = 0.84; z-score, replicate B = 0.47; z-score, replicate C = 0.82; inactive.
With knock-down of EMC8 (ER membrane protein complex subunit 8) the results were mean z-score -1.42; z-score, replicate A = -1.37; z-score, replicate B = -1.56; z-score, replicate C = -1.32; inactive.
With knock-down of LOC401026 (retired record), the screen gave mean z-score 0.48; z-score, replicate A = 0.56; z-score, replicate B = 0.58; z-score, replicate C = 0.31; inactive.
Depletion of BMPR1A (bone morphogenetic protein receptor type 1A) came out at: mean z-score -0.39; z-score, replicate A = -0.69; z-score, replicate B = -0.21; z-score, replicate C = -0.26; inactive.
ARPC1B (actin related protein 2/3 complex subunit 1B) scored mean z-score 0.53; z-score, replicate A = 0.23; z-score, replicate B = 0.83; z-score, replicate C = 0.55; inactive.
After knock-down of TRAM2-AS1 (TRAM2 antisense RNA 1) the results were mean z-score 1.05; z-score, replicate A = 1.21; z-score, replicate B = 1.2; z-score, replicate C = 0.74; inactive.
For IPO11 (importin 11), the entry reads mean z-score 2.19; z-score, replicate A = 2.55; z-score, replicate B = 2.13; z-score, replicate C = 1.88; active.
CYP2A7 (cytochrome P450 family 2 subfamily A member 7) gave mean z-score 0.81; z-score, replicate A = 0.61; z-score, replicate B = 0.8; z-score, replicate C = 1.01; inactive.
